{
  "source": "paper PMC3153243",
  "about": "“Shiga Toxin Is Transported into the Nucleoli of Intestinal Epithelial Cells via a Carrier-Dependent Process” (Toxins, 2010)",
  "target": "the molecule itself",
  "assay": "native gel or EMSA",
  "data": [
    {"protein": "Shiga toxin B-subunit (recombinant StxB pentamer) (natural protein) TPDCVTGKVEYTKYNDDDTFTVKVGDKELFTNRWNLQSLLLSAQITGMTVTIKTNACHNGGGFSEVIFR", "values": [
      {"measurement": "stoichiometry N", "result": 5}
    ]}
  ]
}
